Compound potency records, mixed from different reports. Data source: NIAID ChemDB in PubChem.

Shared fields: tests in culture; species: Mycobacterium avium complex

Lines come from different laboratories, so protocols vary. MIC50, MIC90 and the like: level of inhibition, or share of isolates inhibited.

SMILES,strain or isolate,read-out,value
CC[C@H]1OC(=O)[C@H](C)[C@@H](OC2C[C@@](C)(OC)[C@@H](O)[C@H](C)O2)[C@H](C)[C@@H](O[C@@H]2O[C@H](C)C[C@H](N(C)C)[C@H]2O)C(C)(O)C[C@@H](C)/C(=N\OCCSc2ccccc2)[C@H](C)[C@@H](O)[C@]1(C)O,20096 (clarithromycin-resistant),MIC,12.5 µg/mL
CC1(C)N=C(N)N=C(N)N1OCCCOc1cc(Cl)c(Cl)cc1Cl,1625,MIC,2 µg/mL
CC[C@H]1OC(=O)[C@H](C)[C@@H](O[C@H]2C[C@@](C)(OC)[C@@H](OC(C)=O)[C@H](C)O2)[C@H](C)[C@@H](OC2O[C@H](C)C[C@H](N(C)C)[C@H]2OC(N)=O)C(C)(O)C[C@@H](C)/C(=N\OCCCC2CCCCC2)[C@H](C)[C@@H](O)[C@]1(C)O,20045,MIC,1.56 µg/mL
CCc1nc(N)nc(N)c1-c1ccc(Cl)cc1,DW1,MIC,16 µg/mL
OCCN=c1ssc2ccccc12,ATCC 15769,MIC,8 µg/mL
CC[C@H]1OC(=O)[C@H](C)[C@@H](O[C@H]2C[C@@](C)(OC)[C@@H](OC(C)=O)[C@H](C)O2)[C@H](C)[C@@H](O[C@@H]2O[C@H](C)C[C@H](N(C)C)[C@H]2O)C(C)(O)C[C@@H](C)/C(=N\OCCc2cccs2)[C@H](C)[C@@H](O)[C@]1(C)O,20092 (clarithromycin-resistant),MIC,12.5 µg/mL
Cc1cc(NCc2cnc3nc(N)nc(N)c3c2C)c(Cl)cc1F,NJ211,MIC,≤0.13 µg/mL
COc1cccc2c1n([O-])c1cccc(OC)c1[n+]2=O,109,MIC,≥16 µg/mL
CCCCCCCCCCCCO/N=C1\[C@H](C)CC(C)(O)[C@H](O[C@@H]2O[C@H](C)C[C@H](N(C)C)[C@H]2O)[C@@H](C)[C@H](OC2C[C@@](C)(OC)[C@@H](O)[C@H](C)O2)[C@@H](C)C(=O)O[C@H](CC)[C@@](C)(O)[C@H](O)[C@H]1C,20096 (clarithromycin-resistant),MIC,25 µg/mL
CC[C@H]1OC(=O)[C@H](C)[C@@H](O[C@H]2C[C@@](C)(OC)[C@@H](O)[C@H](C)O2)[C@H](C)[C@@H](O[C@@H]2O[C@H](C)C[C@H](N(C)C)[C@H]2O)[C@](C)(OC)C[C@@H](C)C(=O)[C@H](C)[C@@H](O)[C@]1(C)O,N-966 (HIV+),MIC,2 µg/mL
CCCO/N=C1\[C@H](C)CC(C)(O)[C@H](O[C@@H]2O[C@H](C)C[C@H](N(C)C)[C@H]2O)[C@@H](C)[C@H](O[C@H]2C[C@@](C)(OC)[C@@H](OC(C)=O)[C@H](C)O2)[C@@H](C)C(=O)O[C@H](CC)[C@@](C)(O)[C@H](O)[C@H]1C,20092 (clarithromycin-resistant),MIC,>50 µg/mL
CN[C@@H]1[C@@H](O)C(O[C@@H]2[C@@H](O)[C@H](OC3O[C@H](CN)[C@@H](O)[C@H](O)[C@H]3O)[C@@H](N)C[C@H]2NC(=O)[C@@H](O)CN)OC[C@]1(C)O,T24,MIC,25 µg/mL
COCc1c(CNc2cc(OC)ccc2OC)cnc2nc(N)nc(N)c12,NJ211,MIC,>13 µg/mL
CCCCCCCCO[C@@H]1O[C@H]([C@@H](COCc2ccccc2)O[C@H]2O[C@H](COC(=O)c3ccccc3)[C@@H](OC(=O)c3ccccc3)[C@@H]2OC(=O)c2ccccc2)[C@H](OCc2ccccc2)[C@H]1OCc1ccccc1,NJ211,MIC,>128 µg/mL
CC[C@H]1OC(=O)[C@H](C)[C@@H](O[C@H]2C[C@@](C)(OC)[C@@H](O)[C@H](C)O2)[C@H](C)[C@@H](O[C@@H]2O[C@H](C)C[C@H](N(C)C)[C@H]2O)[C@](C)(OC)C[C@@H](C)C(=O)[C@H](C)[C@@H](O)[C@]1(C)O,F-2,MIC,4 µg/mL
NC[C@H]1O[C@H](O[C@H]2[C@H](O)[C@@H](O[C@H]3O[C@H](CO)[C@@H](O)[C@H](N)[C@H]3O)[C@H](N)C[C@@H]2N)[C@H](O)[C@@H](O)[C@@H]1O,ATCC 35718,MIC,8 µg/mL
CCNC(=O)O[C@H]1C(O[C@@H]2[C@@H](C)[C@H](O[C@H]3C[C@@](C)(OC)[C@@H](OC(C)=O)[C@H](C)O3)[C@@H](C)C(=O)O[C@H](CC)[C@@](C)(O)[C@H](O)[C@@H](C)/C(=N/OCCCC3CCCCC3)[C@H](C)CC2(C)O)O[C@H](C)C[C@@H]1N(C)C,20096,MIC,>50 µg/mL
CO[C@H]1/C=C/O[C@@]2(C)Oc3c(C)c(O)c4c(O)c(c5c(c4c3C2=O)NC2(CCN(CC(C)C)CC2)N=5)=NC(=O)/C(C)=C\C=C\[C@H](C)[C@H](O)[C@@H](C)[C@@H](O)[C@@H](C)[C@H](OC(C)=O)[C@@H]1C,ATCC49601,MIC,0.125 µg/mL
CC1(C)N=C(N)N=C(N)N1OCCCOc1cc(Cl)c(Cl)cc1Cl,DW14,MIC,1 µg/mL
CN[C@@H]1[C@H](O[C@H]2[C@H](O[C@H]3[C@H](O)[C@@H](O)[C@H](N=C(N)N)[C@@H](O)[C@@H]3N=C(N)N)O[C@@H](C)[C@]2(O)C=O)O[C@@H](CO)[C@H](O)[C@H]1O,25 isolates,MIC50,16 µg/mL
CC(C)NC(=O)OCCn1sc2ccccc2c1=O,ISS 486,MIC,16 µg/mL
Cc1c(CNc2cccc3ccccc23)cnc2nc(N)nc(N)c12,NJ168,MIC,≤0.13 µg/mL
CCCNC(=O)OCCn1sc2ccccc2c1=S,AN3,MIC,4 µg/mL
CC[C@H]1OC(=O)[C@H](C)[C@@H](O[C@H]2C[C@@](C)(OC)[C@@H](O)[C@H](C)O2)[C@H](C)[C@@H](O[C@@H]2O[C@H](C)C[C@H](N(C)C)[C@H]2O)[C@](C)(O)C[C@@H](C)/C(=N\OCOCCOC)[C@H](C)[C@@H](O)[C@]1(C)O,N-92159,MIC,2 µg/mL
CCCCCCCCO[C@@H]1O[C@H]([C@@H](COC)O[C@H]2O[C@H](CO)[C@@H](O)[C@@H]2O)[C@H](OC)[C@H]1OC,NJ3404,MIC,>128 µg/mL
CC(C)(C)NC(=O)OCCn1sc2ccccc2c1=O,AN3,MIC,>32 µg/mL
CCCCCCCCNC(=O)O[C@H]1C(O[C@@H]2[C@@H](C)[C@H](O[C@H]3C[C@@](C)(OC)[C@@H](OC(C)=O)[C@H](C)O3)[C@@H](C)C(=O)O[C@H](CC)[C@@](C)(O)[C@H](O)[C@@H](C)/C(=N/OCCCC3CCCCC3)[C@H](C)CC2(C)O)O[C@H](C)C[C@@H]1N(C)C,20045,MIC,0.39 µg/mL
Cc1c(CNc2ccc(Cl)c3ccccc23)cnc2nc(N)nc(N)c12,NJ3404,MIC,≤0.13 µg/mL
O=C(NCCCl)N1CCC(CN=c2cc3n(-c4ccc(Cl)cc4)c4ccccc4nc-3cc2Nc2ccc(Cl)cc2)CC1,109,MIC,8 µg/mL
CO[C@H]1/C=C/O[C@@]2(C)Oc3c(C)c(O)c4c(=O)c(c5oc6cc(N7CCN(CC(C)C)CC7)cc(=O)c6nc5c4c3=C2O)NC(=O)/C(C)=C\C=C\[C@H](C)[C@H](O)[C@@H](C)[C@@H](O)[C@@H](C)[C@H](OC(C)=O)[C@@H]1C,N-979 (HIV+),MIC,0.05 µg/mL
CCCCNC(=O)OCCn1sc2ccccc2c1=S,AN3,MIC,2 µg/mL
CC[C@H]1OC(=O)[C@H](C)[C@@H](O[C@H]2C[C@@](C)(OC)[C@@H](OC(C)=O)[C@H](C)O2)[C@H](C)[C@@H](OC2O[C@H](C)C[C@H](N(C)C)[C@H]2OC(=O)NCCCCCCCCCCCCCCN(C)C)C(C)(O)C[C@@H](C)/C(=N\OCCCC2CCCCC2)[C@H](C)[C@@H](O)[C@]1(C)O,20096,MIC,0.78 µg/mL
CC[C@H]1OC(=O)[C@H](C)[C@@H](O[C@H]2C[C@@](C)(OC)[C@@H](O)[C@H](C)O2)[C@H](C)[C@@H](O[C@@H]2O[C@H](C)C[C@H](N(C)C)[C@H]2O)[C@](C)(OC)C[C@@H](C)C(=O)[C@H](C)[C@@H](O)[C@]1(C)O,900,MIC,1 µg/mL
CC(C)NC(=O)OCCn1sc2ccccc2c1=S,ATCC 15769,MIC,8 µg/mL
C[C@@H]1CN(c2c(F)c(N)c3c(=O)c(C(=O)O)cn(C4CC4)c3c2F)C[C@H](C)N1,ATCC 15769,MIC,0.25 µg/mL
CCCNC(=O)OCCN=c1ssc2ccccc12,AN1,MIC,4 µg/mL
CCc1c(CNc2cc(C(F)(F)F)ccc2OC)cnc2nc(N)nc(N)c12,NJ3404,MIC,≤0.13 µg/mL
NC[C@@H]1O[C@H](O[C@H]2[C@@H](O)[C@H](O[C@@H]3[C@@H](O)[C@H](N)C[C@H](N)[C@H]3O[C@H]3O[C@H](CN)[C@@H](O)[C@H](O)[C@H]3N)O[C@@H]2CO)[C@H](N)[C@@H](O)[C@@H]1O,ATCC 35718,MIC,32 µg/mL
Cc1ccc(Cl)c(NCc2cnc3nc(N)nc(N)c3c2C)c1,NJ168,MIC,≤0.13 µg/mL
N[C@@H]1CN(c2c(F)cc3c(=O)c(C(=O)O)cn([C@@H]4C[C@@H]4F)c3c2Cl)CC12CC2,18 strains,MIC90,12.5 µg/mL
CO[C@H]1/C=C/O[C@@]2(C)Oc3c(C)c(O)c4c(O)c(c5c(c4c3C2=O)NC2(CCN(CC(C)C)CC2)N=5)=NC(=O)/C(C)=C\C=C\[C@H](C)[C@H](O)[C@@H](C)[C@@H](O)[C@@H](C)[C@H](OC(C)=O)[C@@H]1C,N-979 (HIV+),MIC,0.2 µg/mL
CCCCNC(=O)OCCN=c1ssc2ccccc12,ISS 486,MIC,4 µg/mL
C#CCNC(=O)O[C@H]1C(O[C@@H]2[C@@H](C)[C@H](O[C@H]3C[C@@](C)(OC)[C@@H](OC(C)=O)[C@H](C)O3)[C@@H](C)C(=O)O[C@H](CC)[C@@](C)(O)[C@H](O)[C@@H](C)/C(=N/OCCCC3CCCCC3)[C@H](C)CC2(C)O)O[C@H](C)C[C@@H]1N(C)C,20034,MIC,0.2 µg/mL
CC[C@H]1OC(=O)[C@H](C)[C@@H](O[C@H]2C[C@@](C)(OC)[C@@H](OC(C)=O)[C@H](C)O2)[C@H](C)[C@@H](O[C@@H]2O[C@H](C)C[C@H](N(C)C)[C@H]2O)C(C)(O)C[C@@H](C)/C(=N\OCCCC2CCCCC2)[C@H](C)[C@@H](O)[C@]1(C)O,20039,MIC,3.13 µg/mL
CC(C)NC(=O)N1CCC(CN=c2cc3n(-c4ccc(Cl)cc4)c4ccccc4nc-3cc2Nc2ccc(Cl)cc2)CC1,109,MIC,≥16 µg/mL

For reference, 5 entries again:

{"SMILES": "CO[C@H]1/C=C/O[C@@]2(C)Oc3c(C)c(O)c4c(=O)c(c5oc6cc(N7CCN(CC(C)C)CC7)cc(=O)c6nc5c4c3=C2O)NC(=O)/C(C)=C\\C=C\\[C@H](C)[C@H](O)[C@@H](C)[C@@H](O)[C@@H](C)[C@H](OC(C)=O)[C@@H]1C", "strain or isolate": "N-979 (HIV+)", "read-out": "MIC", "value": "0.05 µg/mL"}
{"SMILES": "CCCNC(=O)OCCn1sc2ccccc2c1=S", "strain or isolate": "AN3", "read-out": "MIC", "value": "4 µg/mL"}
{"SMILES": "NC[C@H]1O[C@H](O[C@H]2[C@H](O)[C@@H](O[C@H]3O[C@H](CO)[C@@H](O)[C@H](N)[C@H]3O)[C@H](N)C[C@@H]2N)[C@H](O)[C@@H](O)[C@@H]1O", "strain or isolate": "ATCC 35718", "read-out": "MIC", "value": "8 µg/mL"}
{"SMILES": "CCCO/N=C1\\[C@H](C)CC(C)(O)[C@H](O[C@@H]2O[C@H](C)C[C@H](N(C)C)[C@H]2O)[C@@H](C)[C@H](O[C@H]2C[C@@](C)(OC)[C@@H](OC(C)=O)[C@H](C)O2)[C@@H](C)C(=O)O[C@H](CC)[C@@](C)(O)[C@H](O)[C@H]1C", "strain or isolate": "20092 (clarithromycin-resistant)", "read-out": "MIC", "value": ">50 µg/mL"}
{"SMILES": "N[C@@H]1CN(c2c(F)cc3c(=O)c(C(=O)O)cn([C@@H]4C[C@@H]4F)c3c2Cl)CC12CC2", "strain or isolate": "18 strains", "read-out": "MIC90", "value": "12.5 µg/mL"}